The source of these data is the supplement of paper PMC9931576.

Holding throughout (assay): pseudovirus neutralization IC50; higher = weaker neutralization
For experiment [1], the target named is SARS-CoV-2 Omicron BA.1 spike pseudovirus. The method, then:
(§1)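 Single-round VSV luciferase pseudovirus mixed with antibody dilutions for 1 h and put on Huh-7 cells for about a day; IC50 from the dose curve.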

The target of experiment [2] is SARS-CoV-2 Omicron BA.2 spike pseudovirus. The method, then:
as §1

The target in experiment [3] is SARS-CoV-2 Omicron BA.2.75 spike pseudovirus. Here is the method:
as §1

For experiment [4], the target named is SARS-CoV-2 Omicron BA.5 spike pseudovirus. The method, then: as §1
In experiment [5] the target is SARS-CoV-2 Omicron BQ.1.1 spike pseudovirus. Here is the method:
as §1

For experiment [6], the target named is SARS-CoV-2 Omicron XBB spike pseudovirus. Here is the method: as §1
Experiment [7] concerns the target SARS-CoV-2 early D614G spike pseudovirus. The method, then:
as §1

Substitutions are numbered along the chain they refer to. Human monoclonal antibodies against the spike receptor-binding domain (heavy:light variable regions). IC50 against pseudoviruses bearing the spike of naturally observed variants; lower = stronger; >10 µg/ml means not reached at the top dose. No active / inactive call. The stated detection limit is 0.0005 µg/ml; values near or below 0.001 µg/ml lie at the floor of the assay.

B1: BD56-693 (protein)
chain 1: QVQLVQSGAEVKKPGASVKVSCRASGYIFTSHYMHWVRQAPGQGLEWMGIINPSGGSRRYVQRFQGRVTMTRDTSTSTVYMELSSLTSEDTAVYYCAREGVGATAYFDYWGQGTLVTVSS
chain 2: SYVLTQPPSVSVAPGKTARITCGGNNIGSKSVHWYQQKPGQAPVLVVYDDSDRPSGIPERFSGSNSGNTATLTISRVEAGDEADYFCQVWDGSGDHPGYVFGTGTKVTVL
Regarding B1, the “pseudovirus neutralization IC50” value in experiment [1], in experiment [2], in experiment [3], in experiment [4], in experiment [5] and in experiment [6] was over 10 µg/mL throughout. The “pseudovirus neutralization IC50” value in experiment [7] was over 10 µg/mL.

B2: BD56-695 (protein)
chain 1: QVQLVQSGSELKRPGASVKVSCKASGYTFINYAINWVRQAPGQGLEWMGWINTNTGGPTYAQGFTGRFVLSLDTSVSTAYLQISSLKAEDTAVYYCTRVRLAPVEDWFDPWGQGTLVTVSS
chain 2: B1 chain 2 with R19S, N25D, V47I, Y48F, D49Y, F86Y, G94P, P97Q
Take B2: the “pseudovirus neutralization IC50” value was 6.47 µg/mL in experiment [1]; 7.47 µg/mL in experiment [2]; 6.02 µg/mL in experiment [3]; over 10 µg/mL in experiment [4]; over 10 µg/mL in experiment [5]; 2.33 µg/mL in experiment [6]. Further, in experiment [7], the “pseudovirus neutralization IC50” value is 2.15 µg/mL.

B3: TAU-2189 (protein)
chain 1: EVQLLESGGGLVQPGGSLRLFCAASGFTFSSFAMSWVRQAPGKGLEWVSTISGSGGRTYYADSVKGRFTIFRDNSKNTLYLQMNSLRAEDTALYYCAKDMDIVVVITGDAFDIWGQGTMVTVSS
chain 2: SYELTQPPSVSVSPGQTARITCSGDALPKQYAYWYQQKPGQAPVLVIYKDSERPSGIPERFSGSSSGTTVTLTISGVQAEDEADYYCQSADSSGTYRVFGTGTKVTVL
As to B3, the “pseudovirus neutralization IC50” value in experiment [1], in experiment [2], in experiment [3], in experiment [4], in experiment [5] and in experiment [6] was over 10 µg/mL each time. The “pseudovirus neutralization IC50” value in experiment [7] is over 10 µg/mL.

B4: BD56-692 (protein)
chain 1: QVQLVQSGGEVKKPGASVKVSCKASGYTFTSYGISWVRQAPGQGLEWMGWINTYNGDTNFAQKFQGGVTMTTDTSTRTAYMELRSLRSDDTAVYYCARVSDYYASGSSLYYFDYWGQGTLVTVSS
chain 2: EIVMTQSPATLSVSPGERATLSCKASQSLRSNLAWYQQKPGQAPKVLIYGASTRATGIPARFSGSGSGTEFTLTISSLQSEDFAVYYCQQYDNWPPVWTFGHGTKVEIK
For the molecule B4, the “pseudovirus neutralization IC50” value in experiment [1] is 2.03 µg/mL; in experiment [2], 2.12 µg/mL; in experiment [3], 2.59 µg/mL; in experiment [4] it was 2.81 µg/mL; in experiment [5] it was over 10 µg/mL; in experiment [6], over 10 µg/mL. The “pseudovirus neutralization IC50” value in experiment [7] was 3.76 µg/mL.

B5: BD56-681 (protein)
chain 1: QVQLVQSGAEVKKPGSSVKVSCKASGGTFNTYTVTWVRQAPGQGLEWMGRIIPFLLITNYAPKFQGRVTITADKSTSTAYMELSSLRSEDTAVYFCARDRGGGHCSDTSCYEDYFYYYGMDVWGQGTTVTVSS
chain 2: SYELTQPPSVSVSPGQTVSITCSGDKLGYKYACWYQQKAGQSPVLVIYQDNKRPSGIPERFSGSNSGNTATLTISGTQTMDEADYYCQAWDSSTSVVFGGGTKLTVL
On to B5, for which the “pseudovirus neutralization IC50” value in experiment [1] came out at 0.65 µg/mL; in experiment [2], 0.739 µg/mL; in experiment [3], 0.962 µg/mL; in experiment [4], 0.511 µg/mL; in experiment [5] it was 1.95 µg/mL; in experiment [6], 2.9 µg/mL. In experiment [7], the “pseudovirus neutralization IC50” value is over 10 µg/mL.

B6: BD56-697 (protein)
chain 1: QVQLQESGPGLVKPSQTLSLTCTVSGDSISSGGYYWSWIRQRPGKGLEWIGYIYYSGSTYYNPSLESRITISIDTSKNQFSLNLRSVTAADTAVYFCARDAIVVVPAALPEYYGMDVWGQGTTVTVSS
chain 2: SYELTQPPSVSVSPGQTARITCSGDALPKQHAYWYQQKSGQAPVLVIYRDNERPSGIPERFSGSSSGTTVTLTISGVQADDEADYYCQSADSTGIFVWVFGGGTRLTVL
As for B6, the “pseudovirus neutralization IC50” value in experiment [1], in experiment [2], in experiment [3], in experiment [4], in experiment [5] and in experiment [6] was over 10 µg/mL throughout. Besides, the “pseudovirus neutralization IC50” value in experiment [7] was over 10 µg/mL.
